Pooled drug test results. Numbers come from NIAID ChemDB, via PubChem.

All rows: tests in culture; agent: Mycobacterium tuberculosis

MIC bound comes from a single tested concentration. A number after MIC or MFC names an inhibition level or a share of isolates. Percent inhibition refers to the dose given; in toxicity tests it is the harm to the cells. a–b is a range or a potency band. ECn: concentration that inhibits the pathogen or its effect by n%. Neighbouring rows are from separate reports. An empty or dashed field is not shown.

smiles | changes | read-out | dose | cells | strain | setting | method | value
C[C@@H]([C@H]1CC[C@H]2[C@@H]3[C@@H]4O[C@@H]4[C@@]4(O)CC=CC(=O)[C@]4(C)[C@H]3C[C@H](O)[C@]12C)[C@H]1C[C@]2(C)O[C@]2(C)C(=O)O1 |  | inhibition | 6.25 µg/mL |  | H37Rv |  | resazurin | 23%
CC1(C)CC[C@]2(C(=O)O)CC[C@]3(C)C(=CCC4[C@@]5(C)CC[C@H](O)C(C)(C)C5CC[C@]43C)C2C1 |  | MIC |  |  | H37Rv (isoniazid-resistant) |  |  | 50 µg/mL
O=C(NNCc1ccccc1F)c1ccncc1 |  | MBC |  |  | Isoniazid-resistant |  |  | >6.25 µg/mL
O=C1C2=C(C(=O)c3ccccc31)C(O)(S(=O)(=O)O)C(O)(S(=O)(=O)O)C1N=CC=CC21 |  | inhibition | 12.5 µg/mL |  | H37Rv |  | BACTEC | 10%
CO[C@H]1/C=C/O[C@@]2(C)Oc3c(C)c(O)c4c(O)c(c(/C=N/N5CCN(C)CC5)c(O)c4c3C2=O)NC(=O)/C(C)=C\C=C\[C@H](C)[C@H](O)[C@@H](C)[C@@H](O)[C@@H](C)[C@H](OC(C)=O)[C@@H]1C |  | MIC50 |  |  | ATCC 27294 |  |  | 0.1 µM
COc1ccc(CN2CCN(S(=O)(=O)c3ccc(-n4cccn4)cc3)CC2)cc1 |  | MIC |  |  |  |  |  | >200 µM
C(=C\c1ccccc1)/CO/N=C(\Cn1ccnc1)c1ccccc1 |  | MIC |  |  | CIP103471 |  |  | 8 µg/mL
Cc1nc(N)sc1N=Nc1cc(Br)ccc1Br |  | MIC bound |  |  | H37Rv |  | BACTEC | >6.25 µg/mL
Clc1ccc(/C(Cn2ccnc2)=N/OCc2cccc3ccccc23)c(Cl)c1 |  | MIC |  |  | CIP103471 |  |  | 8 µg/mL
Fc1ccccc1-n1ncc(C(c2ccccc2)n2ccnc2)c1-c1ccccc1 |  | MIC50 |  |  | ATCC 35828 (pyrazinamide-resistant) |  |  | ≥100 µM
C/C(=N\NC(=O)c1ccncc1)c1ccccc1 |  | MIC |  |  | Erdman |  |  | 0.1 µg/mL
Clc1ccccc1C(c1ccccc1)(c1ccccc1)n1ccnc1 |  | MIC50 |  |  | ATCC 35820 (streptomycin-resistant) |  |  | ≥100 µM
Clc1ccc(/C(Cn2ccnc2)=N\OC/C=C/c2ccccc2)cc1 |  | MIC |  |  | CIP103471 |  |  | 8 µg/mL
CC(=O)OCC1=COC(OC(=O)CC(C)(C)OC(C)=O)C2C1=CC(OC(=O)CC(C)C)C21CO1 |  | MIC bound |  |  | H37Rv |  | BACTEC | >12.5 µg/mL
NNC(=O)c1ccncc1 |  | MIC99 |  |  | H37Rv |  | broth dilution | <0.05 µg/mL
CC(NNC(=O)c1ccncc1)c1ccc(F)cc1 |  | MBC |  |  | Rifampicin-resistant |  |  | 12.5 µg/mL
CCOC(=O)c1cc(C(=O)c2ccc(C)cc2)n2c1ccc1c3ncccc3ccc12 |  | EC50 |  |  | H37Rv |  | reporter gene / fluorescence | >200 µM
O=C(N/N=C/c1ccc(O)cc1O)c1ccncc1 |  | MIC |  |  | KM-R |  |  | 1 µg/mL
CCOc1ccc(N2C(=O)/C(=C/c3ccccc3)S/C2=N\c2ccccn2)cc1 |  | MIC |  |  | H37Rv |  |  | ≥25 µg/mL
C/C(=N\NC(=O)c1cccnc1)c1cccc(/C(C)=N/NC(=O)c2cccnc2)n1 |  | MIC |  |  | CS-R |  |  | >12.5 µg/mL
CO[C@H]1/C=C/O[C@@]2(C)Oc3c(C)c(O)c4c(O)c(c(/C=N/N5CCN(C)CC5)c(O)c4c3C2=O)NC(=O)/C(C)=C\C=C\[C@H](C)[C@H](O)[C@@H](C)[C@@H](O)[C@@H](C)[C@H](OC(C)=O)[C@@H]1C | Extensively drug-resistant | MIC |  |  | XZ06008 |  | resazurin | >256 µg/mL
C[C@@H]1CN(c2c(F)c(N)c3c(=O)c(C(=O)O)cn(C4CC4)c3c2F)C[C@H](C)N1 |  | MIC |  |  | Isolate TN6515 |  |  | 0.075 µg/mL
CC1COc2c(N3CCN(C)CC3)c(F)cc3c(=O)c(C(=O)O)cn1c23 |  | MIC |  |  | 08-211 |  | agar | 0.125 µg/mL
C=CCN1C(=O)CS/C1=N\c1nc2ccccc2s1 |  | MIC |  |  | H37Rv |  |  | ≥25 µg/mL
CCCNCC(O)COc1ccc2c3c(c(=O)oc2c1)CCC3 |  | MIC bound |  |  | H37Rv |  | BACTEC | >12.5 µg/mL
CCOC(=O)c1cc(C(=O)c2ccc(Br)cc2)n2c1ccc1c3ncccc3ccc12 |  | EC50 |  |  | H37Rv |  | reporter gene / fluorescence | >100 µM
NNC(=O)c1ccncc1 | Isoniazid-resistant katG Y155 truncation | MIC |  |  | H37Rv |  | absorbance | >200 µM
C/C(=N\NC(=O)c1ccncc1)c1ccccc1F |  | MBC |  |  | Isoniazid-resistant |  |  | >6.25 µg/mL
c1ccc(CO/N=C(/Cn2ccnc2)c2ccccc2)cc1 |  | MIC |  |  | CIP103471 |  |  | 0.5 µg/mL
CC(NNC(=O)c1ccncc1)c1cccc(C(F)(F)F)c1 |  | MIC |  |  | H37Rv (rifampin-resistant) |  |  | 1.96 µg/mL
CCN(CC)CCSC(=S)N1c2ccccc2Sc2ccccc21 |  | MIC bound |  |  | H37Rv |  | BACTEC | ≤128 µg/mL
C=CCN1C(=O)/C(=C/c2ccc(Cl)cc2Cl)S/C1=N\c1nc2ccccc2s1 |  | MIC |  |  | H37Rv |  |  | ≥25 µg/mL
CC[C@@H](CO)NCCN[C@@H](CC)CO | KatG W149R isoniazid-resistant | MIC99 |  |  | H37Rv |  | broth dilution | 1 µg/mL
CCOc1ccc(N2C(=O)/C(=C/c3cccc(O)c3)S/C2=N\c2ccccn2)cc1 |  | MIC |  |  | H37Rv |  |  | ≥25 µg/mL
COC(=O)C1=CO[C@@H](C)[C@@H]2CN3CCc4c([nH]c5cc(OC)ccc45)[C@@H]3C[C@H]12 |  | MIC |  |  | H37Rv |  | BACTEC | ≥128 µg/mL
Clc1ccc(/C(Cn2ccnc2)=N\OCc2ccccc2)cc1 |  | MIC |  |  | CIP103471 |  |  | 0.5 µg/mL
Cc1ccn2c(N=O)c(-c3ccccc3)nc2c1 |  | MIC bound |  |  | H37Rv |  | BACTEC | ≤12.5 µg/mL
Cc1c(F)c(N2CCNC(C)C2)cc2c1c(=O)c(C(=O)O)cn2C1CC1 |  | MIC90 |  |  | 206 isolates (susceptible) |  |  | 1 µg/mL
CC1(C)CC[C@]2(C(=O)O)CC[C@]3(C)C(CC[C@@H]4[C@@]5(C)C[C@H](O)CC(C)(C)[C@@H]5CC[C@]43C)[C@@H]2C1 |  | MIC |  |  | RIF-R (ATCC 35838) |  | resazurin | 25 µg/mL
C/C(=N\NC(=O)c1ccncc1)c1ccc(F)cc1 |  | MIC |  |  | Rifampicin-resistant |  |  | 0.2 µg/mL
CC/C(=C(\c1ccccc1)c1ccc(OCCN(C)C)cc1)c1ccccc1 |  | MIC |  |  | INH-r |  | resazurin | 6.25–12.5 µg/mL
COC(=O)C1(C)CCCC2(C)c3cc(O)c(C(C)C)cc3CCC12 |  | MIC bound |  |  | H37Rv |  | BACTEC | >12.5 µg/mL
Cc1ccc(C(=O)[C@@H]2[C@H]3C(=O)N(c4ccccc4)C(=O)[C@H]3[C@H]3C=Cc4c(ccc5cccnc45)N32)cc1 |  | EC90 |  |  | H37Rv |  | reporter gene / fluorescence | >200 µM
NNC(=O)c1ccncc1 |  | MIC |  |  | ATCC 27294 |  |  | 0.031 µg/mL
COC(=O)C(Cc1ccc2c(c1)OCO2)(NC(=O)c1ccccc1)P(=O)(OC)OC |  | MIC bound |  |  | H37Rv |  | BACTEC | >12.5 µg/mL
CC(=O)Nc1ccc(/C=N/NC(N)=S)cc1 |  | MIC |  |  | ATCC 27294 |  |  | 15 µg/mL
O=C(N/N=C/c1ccccc1F)c1ccncc1 |  | MIC |  |  | H37Rv (thiacetazone-resistant) |  |  | >32 µg/mL
O=C(NC1CCN(Cc2ccncc2)CC1)c1ccc(-n2cccn2)cc1 |  | MIC |  |  |  |  |  | >200 µM
CN[C@@H]1[C@H](O[C@H]2[C@H](O[C@H]3[C@H](O)[C@@H](O)[C@H](N=C(N)N)[C@@H](O)[C@@H]3N=C(N)N)O[C@@H](C)[C@]2(O)C=O)O[C@@H](CO)[C@H](O)[C@H]1O |  | MIC90 |  |  | ATCC 35822 (isoniazid-resistant) |  |  | 0.3 µM
CC1COc2c(N3CCN(C)CC3)c(F)cc3c(=O)c(C(=O)O)cn1c23 |  | MIC90 |  |  | 44 isolates (resistant) |  |  | 2 µg/mL
CCNCC(=O)Nc1ccc(C)c(Cl)c1.Cl |  | inhibition | 12.5 µg/mL |  | H37Rv |  | BACTEC | 0%
O=C(N/N=C/c1cccc(F)c1)c1ccncc1 |  | MIC |  |  | Ethambutol-resistant |  |  | ≤0.1 µg/mL
O=c1oc(-c2ccncc2)nn1CN1CCOCC1 |  | inhibition | 12.5 µg/mL |  | H37Rv |  | BACTEC | 89%
CO[C@H]1/C=C/O[C@@]2(C)Oc3c(C)c(O)c4c(O)c(c(/C=N/N5CCN(C)CC5)c(O)c4c3C2=O)NC(=O)/C(C)=C\C=C\[C@H](C)[C@H](O)[C@@H](C)[C@@H](O)[C@@H](C)[C@H](OC(C)=O)[C@@H]1C |  | EC50 |  |  | H37Rv |  | reporter gene / fluorescence | 0.0036 µM
NCC[C@H](O)C(=O)N[C@@H]1C[C@H](N)[C@@H](O[C@H]2O[C@H](CN)[C@@H](O)[C@H](O)[C@H]2O)[C@H](O)[C@H]1O[C@H]1O[C@H](CO)[C@@H](O)[C@H](N)[C@H]1O |  | MIC |  |  | MDR3 |  | broth dilution / resazurin | 8 µg/mL
O=C(NNCc1ccc(F)cc1)c1ccncc1 |  | EC50 |  | Macrophages | Erdman | inside macrophages | colony count | <0.014 µg/mL
COc1ccc(OC)c(/C=N/NC(=O)CCCCCCCCC(=O)N/N=C/c2cc(OC)ccc2OC)c1 |  | MIC bound |  |  | H37Rv |  | BACTEC | >12.5 µg/mL
C=CCN1C(=O)/C(=C/c2cccc([N+](=O)[O-])c2)S/C1=N\c1nc2ccccc2s1 |  | MIC |  |  | H37Rv |  |  | ≥25 µg/mL
Clc1ccc(-n2ncc(C(c3ccccc3)n3ccnc3)c2-c2ccccc2)cc1 |  | MIC90 |  |  | ATCC 35822 (isoniazid-resistant) |  |  | ≥100 µM
O=S(=O)(NC1CCN(Cc2ccncc2)CC1)c1ccc(-n2cccn2)cc1 |  | MIC |  |  |  |  |  | 1.1 µM
NC(=O)c1cnccn1 |  | MIC |  |  | Isolate 10350 monodrug-resistant |  |  | >300 µg/mL
Fc1ccc(/C(Cn2ccnc2)=N\OCc2ccc(-c3ccccc3)cc2)cc1 |  | MIC |  |  | CIP103471 |  |  | 8 µg/mL
CCOc1ccc(N2C(=O)/C(=C/c3ccc(C)o3)S/C2=N\c2ccccn2)cc1 |  | MIC |  |  | H37Rv |  |  | ≥25 µg/mL
CC(C)n1c(=O)nc(-c2ccccc2)c2cc3c(cc21)OCO3 |  | inhibition | 12.5 µg/mL |  | H37Rv |  | BACTEC | 9%
Clc1ccc(-n2ncc(C(c3ccccc3)n3ccnc3)c2-c2ccccc2)c(Cl)c1 |  | MIC50 |  |  | ATCC 35837 (ethambutol-resistant) |  |  | 64.2 µM
CCOC(=O)c1cc(C(=O)c2ccc(Cl)cc2)n2c1ccc1c3ncccc3ccc12 |  | EC50 |  |  | H37Rv |  | reporter gene / fluorescence | >100 µM
Clc1ccc(-c2c(C(c3ccccc3)n3ccnc3)cnn2-c2ccc(Cl)cc2Cl)cc1 |  | MIC50 |  |  | ATCC 35837 (ethambutol-resistant) |  |  | ≥100 µM
CC(=O)O[C@@H]1c2c3c(n(C#N)c2[C@H](OC(C)=O)[C@](C)(O)[C@H]1OC(C)=O)C(=O)c1c(O)cccc1C3=O |  | MIC |  |  | H37Rv |  | BACTEC | 12.8 µg/mL
NC(=O)c1cnccn1 |  | MIC |  |  | Isolate 97-718 |  |  | 900 µg/mL
O=S(=O)(Nc1nccs1)c1ccc(N=Cc2cn(Cc3ccccc3)c3ccccc23)cc1 |  | MIC |  | VERO | H37Rv |  |  | 1.56 µg/mL
CN(C1CCN(Cc2ccncc2)CC1)S(=O)(=O)c1ccc(-n2cccn2)cc1 |  | MIC |  |  |  |  |  | 12.5 µM
c1ccc(/C(Cn2ccnc2)=N\OCc2ccc(-c3ccccc3)cc2)cc1 |  | MIC |  |  | CIP103471 |  |  | 8 µg/mL
COC(=O)c1c(C(=O)OC)c2ccc3c4ncccc4ccc3n2c1C(=O)c1ccccc1 |  | EC90 |  |  | H37Rv |  | reporter gene / fluorescence | >20 µM
C=CCN1C(=O)/C(=C\c2cccs2)S/C1=N\c1nc2ccccc2s1 |  | MIC |  |  | H37Rv |  |  | ≥25 µg/mL
Clc1ccc(/C(Cn2ccnc2)=N/OCc2ccc(-c3ccccc3)cc2)c(Cl)c1 |  | MIC |  |  | CIP103471 |  |  | 8 µg/mL
CCOC(=O)C1C(NC(N)=O)N(Cc2ccccc2)C(=O)N1Cc1ccccc1 |  | MIC bound |  |  | H37Rv |  | BACTEC | >12.5 µg/mL
CCC1CN(c2c(F)cc3c(=O)c(C(=O)O)cn(C4CC4)c3c2OC)CCN1 |  | MIC |  |  | Isolate TN6515 |  |  | 0.07 µg/mL
CCOC1(OCC)C(=O)N(c2ccc(Cl)c(Cl)c2)C(=O)N1c1ccc(Cl)c(Cl)c1 |  | MIC bound |  |  | H37Rv |  | BACTEC | >12.5 µg/mL
Fc1ccccc1-c1c(C(c2ccccc2)n2ccnc2)cnn1-c1ccccc1 |  | MIC50 |  |  | ATCC 35822 (isoniazid-resistant) |  |  | ≥100 µM

6 of the rows above, restated:

| smiles | changes | read-out | dose | cells | strain | setting | method | value |
|---|---|---|---|---|---|---|---|---|
| O=C(N/N=C/c1ccc(O)cc1O)c1ccncc1 |  | MIC |  |  | KM-R |  |  | 1 µg/mL |
| O=C(N/N=C/c1ccccc1F)c1ccncc1 |  | MIC |  |  | H37Rv (thiacetazone-resistant) |  |  | >32 µg/mL |
| CC(NNC(=O)c1ccncc1)c1ccc(F)cc1 |  | MBC |  |  | Rifampicin-resistant |  |  | 12.5 µg/mL |
| O=C(NNCc1ccc(F)cc1)c1ccncc1 |  | EC50 |  | Macrophages | Erdman | inside macrophages | colony count | <0.014 µg/mL |
| O=c1oc(-c2ccncc2)nn1CN1CCOCC1 |  | inhibition | 12.5 µg/mL |  | H37Rv |  | BACTEC | 89% |
| Clc1ccc(-n2ncc(C(c3ccccc3)n3ccnc3)c2-c2ccccc2)cc1 |  | MIC90 |  |  | ATCC 35822 (isoniazid-resistant) |  |  | ≥100 µM |